Reference: PubChem BioAssay AID1259414 (Drosophila RNAi Screening Center, 2018)
Aim: 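Host factors increasing or decreasing Wolbachia levels in cultured fly cells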 (primary screen). System: Drosophila JW18 cells infected with Wolbachia. Reagent: long dsRNA against Drosophila genes, 0.25 µg dsRNA per well of a 384-well plate. Duration: 5 days. Treatment: cells persistently infected with Wolbachia before knock-down; no added drug. Read-out: 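Automated imaging of bacterial rRNA staining divided by host cell count, reported as plate-normalised robust z-score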. Direction: Wolbachia per cell robust z: higher = more Wolbachia per host cell than the plate typical. Rule for the call: 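Hit when robust z is 1.5 or more, or -1.5 or less, in at least two of three replicates; excludes dsRNAs with several or no targets, genes not expressed in JW18 and well A1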.
In all, the deposit lists about 24,000 reagents; this is a random part of those with a known target gene and a result. In the full data, about 1,210 (5%) got an active call. 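Inactive calls also include excluded dsRNAs with several or no targets, genes unexpressed in JW18, and well A1, regardless of score.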 A number with no mark means an inactive call. No sequences are given here.

spel1 (spellchecker1) [DRSC03617] → Wolbachia per cell robust z, rep 1 = -0.000264; Wolbachia per cell robust z, rep 2 = -0.366; Wolbachia per cell robust z, rep 3 = 0.324
spel1 (spellchecker1) [DRSC29609] → Wolbachia per cell robust z, rep 1 = -0.252; Wolbachia per cell robust z, rep 2 = 0.169; Wolbachia per cell robust z, rep 3 = -0.272
CG17230 [DRSC15203] → Wolbachia per cell robust z, rep 1 = 0.499; Wolbachia per cell robust z, rep 2 = -0.29; Wolbachia per cell robust z, rep 3 = 0.803
CG17230 [DRSC27268] → Wolbachia per cell robust z, rep 1 = 0.0504; Wolbachia per cell robust z, rep 2 = 0.645; Wolbachia per cell robust z, rep 3 = 0.778
CG8001 [DRSC08611] → Wolbachia per cell robust z, rep 1 = -0.449 (active); Wolbachia per cell robust z, rep 2 = -2.52; Wolbachia per cell robust z, rep 3 = -2.76
Lcp65APsi (pseudo) [DRSC08795] → Wolbachia per cell robust z, rep 1 = -0.342; Wolbachia per cell robust z, rep 2 = -6.72; Wolbachia per cell robust z, rep 3 = -0.0322
Lcp65APsi (pseudo) [DRSC10342] → Wolbachia per cell robust z, rep 1 = 0.268; Wolbachia per cell robust z, rep 2 = 0.555; Wolbachia per cell robust z, rep 3 = 1.11
RYa (RYamide) [DRSC40588] → Wolbachia per cell robust z, rep 1 = 0.547; Wolbachia per cell robust z, rep 2 = 1.39; Wolbachia per cell robust z, rep 3 = 1.56
Or65a (Odorant receptor 65a) [DRSC08808] → Wolbachia per cell robust z, rep 1 = 0.673; Wolbachia per cell robust z, rep 2 = 0.679; Wolbachia per cell robust z, rep 3 = 2.01
sp3 (spermathreecae) [DRSC16354] → Wolbachia per cell robust z, rep 1 = -3.08 (active); Wolbachia per cell robust z, rep 2 = 0.223; Wolbachia per cell robust z, rep 3 = -5.36
sp3 (spermathreecae) [DRSC41446] → Wolbachia per cell robust z, rep 1 = 0.84; Wolbachia per cell robust z, rep 2 = 0.0221; Wolbachia per cell robust z, rep 3 = 0.399
mt:ND2 (mitochondrial NADH-ubiquinone oxidoreductase chain 2) [DRSC21274] → Wolbachia per cell robust z, rep 1 = -0.179; Wolbachia per cell robust z, rep 2 = -0.676; Wolbachia per cell robust z, rep 3 = -0.604
mt:ND2 (mitochondrial NADH-ubiquinone oxidoreductase chain 2) [DRSC41544] → Wolbachia per cell robust z, rep 1 = 0.48; Wolbachia per cell robust z, rep 2 = -0.746; Wolbachia per cell robust z, rep 3 = 1.2
CG15878 [DRSC08486] → Wolbachia per cell robust z, rep 1 = -0.794; Wolbachia per cell robust z, rep 2 = -1.27; Wolbachia per cell robust z, rep 3 = -2.9
CG15878 [DRSC28875] → Wolbachia per cell robust z, rep 1 = -0.415; Wolbachia per cell robust z, rep 2 = -0.27; Wolbachia per cell robust z, rep 3 = -0.176
CG15219 [DRSC03715] → Wolbachia per cell robust z, rep 1 = 0.113; Wolbachia per cell robust z, rep 2 = 0.0658; Wolbachia per cell robust z, rep 3 = 0.271
Fbxo42 (F-box protein 42) [DRSC04529] → Wolbachia per cell robust z, rep 1 = -1.39; Wolbachia per cell robust z, rep 2 = -0.117; Wolbachia per cell robust z, rep 3 = -0.546
Fbxo42 (F-box protein 42) [DRSC29911] → Wolbachia per cell robust z, rep 1 = 0.83; Wolbachia per cell robust z, rep 2 = 0.574; Wolbachia per cell robust z, rep 3 = 0.623
mst (misato) [DRSC20582] → Wolbachia per cell robust z, rep 1 = -0.738; Wolbachia per cell robust z, rep 2 = 0.323; Wolbachia per cell robust z, rep 3 = 0.502
Rnf146 (Ring finger protein 146) [DRSC11045] → Wolbachia per cell robust z, rep 1 = -0.0663; Wolbachia per cell robust z, rep 2 = 0.0532; Wolbachia per cell robust z, rep 3 = 1.12
indra [DRSC08558] → Wolbachia per cell robust z, rep 1 = 0.647; Wolbachia per cell robust z, rep 2 = 0.262; Wolbachia per cell robust z, rep 3 = -0.0436
indra [DRSC26845] → Wolbachia per cell robust z, rep 1 = -1.3; Wolbachia per cell robust z, rep 2 = -0.802; Wolbachia per cell robust z, rep 3 = -0.537
Karl [DRSC19883] → Wolbachia per cell robust z, rep 1 = -3.7; Wolbachia per cell robust z, rep 2 = -0.2; Wolbachia per cell robust z, rep 3 = -1.22
Dlg5 (Discs large 5) [DRSC02964] → Wolbachia per cell robust z, rep 1 = 0.982; Wolbachia per cell robust z, rep 2 = -1.14; Wolbachia per cell robust z, rep 3 = -1.54
Dlg5 (Discs large 5) [DRSC27257] → Wolbachia per cell robust z, rep 1 = -0.517; Wolbachia per cell robust z, rep 2 = -0.0743; Wolbachia per cell robust z, rep 3 = -5.48

2 of these entries, reformatted:
{"target gene": "indra", "amplicon": "DRSC26845", "Wolbachia per cell robust z, rep 1": -1.3, "Wolbachia per cell robust z, rep 2": -0.802, "Wolbachia per cell robust z, rep 3": -0.537}
{"target gene": "Karl", "amplicon": "DRSC19883", "Wolbachia per cell robust z, rep 1": -3.7, "Wolbachia per cell robust z, rep 2": -0.2, "Wolbachia per cell robust z, rep 3": -1.22}
